Anti-infective test results gathered from many reports (values: NIAID ChemDB through PubChem).

Common to all: tests in culture; species: Plasmodium falciparum

Conditions beyond the fields shown may differ between rows. An empty or dashed field is not shown. ECn: concentration that inhibits the pathogen or its effect by n%. Inhibition is in % at the dose shown (toxicity tests: loss of growth or viability).

smiles	cell line	setting	tested at	strain	measure	mutations	read by	value
CCO/C(=N/NC(=O)NCc1ccc(C)cc1)C(C)(O)c1ccc(Cl)c(Cl)c1	-	-	5 µM	3D7	inhibition	-	hypoxanthine uptake / radiometric	15%
C=C[C@H]1CN2CC[C@H]1C[C@H]2[C@H](O)c1ccnc2ccc(OC)cc12	-	24 h	0.016 µg/mL	W2	inhibition	-	-	71%
CCOC(=O)N/N=C(/OCc1ccc(Cl)cc1)C(C)(O)c1ccc(Cl)cc1	-	-	5 µM	3D7	inhibition	-	hypoxanthine uptake / radiometric	4%
Cn1nc(C(F)(F)F)c(-c2ccc(Br)cc2)c1NC(=O)Nc1ccc(F)cc1F	-	-	-	KAE678R-1	EC50	KAE678-resistant (G223R)	SYBR Green / fluorescence	1.41 µM
CC[C@H]1OC(=O)[C@H](C)[C@@H](OC2C[C@@](C)(OC)[C@@H](O)[C@H](C)O2)[C@H](C)[C@@H](OC2O[C@H](C)C[C@H](N(C)C)[C@H]2O)[C@](C)(O)C[C@@H](C)CN(C)[C@H](C)[C@@H](O)[C@]1(C)O	RBC	120 h	-	3D7AziR	EC50	-	fluorescence	1.2 µM
COc1cc(C2=NCCN2)ccc1OCCCOc1ccc(C2=NCCN2)cc1OC	-	-	-	W2	EC50	-	hypoxanthine uptake	0.039 µM
CCCCNc1nc(Nc2nc(-c3ccc(Cl)cc3)cs2)nc(N(CC)CC)n1	-	-	50 µg/mL	3D7	inhibition	-	-	6.5%
CN[C@@H](CC1=c2c(O)c3c(c(O)c2N=C1)=NC=CS3(=O)=O)C(=O)O	-	-	-	3D7	MIC	-	-	0.309 µM
CCN(CC)c1nc(Cl)nc(Nc2nc(-c3ccc(Cl)c(Cl)c3)cs2)n1	-	-	50 µg/mL	3D7	inhibition	-	-	7%
N=C(N)c1ccc(OCCCCOc2ccc(C(=N)N)cc2N)c(N)c1	-	-	-	W2	EC50	-	hypoxanthine uptake	0.339 µM
C[C@H]1CCc2c([nH]c3ccccc23)[C@@]2(N1)C(=O)Nc1ccc(Cl)cc12	-	-	-	GNF-Pf4492R-3	EC50	GNF-Pf4492-resistant A187V	SYBR Green / fluorescence	0.14 µM
CCCCNc1nc(N)nc(Nc2nc(-c3ccc(Cl)c(Cl)c3)cs2)n1	-	-	50 µg/mL	3D7	inhibition	-	-	5.5%
CCOC(=O)N/N=C(/OCc1ccccc1)C(C)(O)c1ccc2ccccc2c1	-	-	5 µM	3D7	inhibition	-	hypoxanthine uptake / radiometric	0%
C=CCNc1nc(Nc2nc(-c3ccc(Cl)c(Cl)c3)cs2)nc(N(CC)CC)n1	-	-	50 µg/mL	3D7	inhibition	-	-	2%
N=C(N)c1ccc(OCCCCCOc2ccc(C(=N)N)cc2[N+](=O)[O-])c([N+](=O)[O-])c1	-	-	-	D6	EC50	-	hypoxanthine uptake	0.124 µM
CC(=O)O[C@H]1CC2C(C3CC[C@H](C(C)CCCNCCCCCCNc4ccnc5cc(Cl)ccc45)[C@]31C)[C@H](OC(C)=O)C[C@@H]1CC(=O)CC[C@]21C	-	-	-	D6	EC90	-	SYBR Green	0.00513 µM
CCC[C@H]1O[C@@H]2CC(=O)O[C@@H]2C2=C1C(=O)c1c(O)cccc1C2=O	-	-	1.5 µM	HB3	inhibition	-	SYBR Green	90%
CC[C@H]1OC(=O)[C@H](C)[C@@H](OC2C[C@@](C)(OC)[C@@H](O)[C@H](C)O2)[C@H](C)[C@@H](OC2O[C@H](C)C[C@H](N(C)C)[C@H]2O)[C@](C)(OC2C[C@@H](N(C)C)[C@@H](O)[C@H](C)O2)C[C@@H](C)C(=O)[C@H](C)[C@@H](O)[C@]1(C)O	RBC	48 h	-	W2 Mef	EC50	-	fluorescence	12.8 µM

Again, the opening 2 rows:

| smiles | cell line | setting | tested at | strain | measure | mutations | read by | value |
|---|---|---|---|---|---|---|---|---|
| CCO/C(=N/NC(=O)NCc1ccc(C)cc1)C(C)(O)c1ccc(Cl)c(Cl)c1 | - | - | 5 µM | 3D7 | inhibition | - | hypoxanthine uptake / radiometric | 15% |
| C=C[C@H]1CN2CC[C@H]1C[C@H]2[C@H](O)c1ccnc2ccc(OC)cc12 | - | 24 h | 0.016 µg/mL | W2 | inhibition | - | - | 71% |